This note sets out measurements from US7378408B2, “Methods of treatment and formulations of cephalosporin” (Pfizer Inc., priority 2001, dated 2008).

Structures can show the parent of a compound that is named as a salt.

In this assay the test system is Clostridium perfringens. Type of assay: in vivo. The conditions noted are these: cats, 14 days after a single administration of 8 mg/kg.

For `CO/N=C(\C(=O)N[C@@H]1C(=O)N2C(C(=O)O)=C([C@@H]3CCCO3)CS[C@H]12)c1csc(N)n1` [Compound I, (6R,7R)-7-[[(2Z)-(2-amino-4-thiazolyl)(methoxyimino)acetyl]amino]-8-oxo-3-[(2S)-tetrahydro-2-furanyl]-5-thia-1-azabicyclo[4.2.0]oct-2-ene-2-carboxylic acid, monosodium salt], the “reduction in the numbers of Clostridium perfringens bacteria” value is reported as “substantial reduction”.
